A mixed list of measured activities; the numbers were collected in NIAID ChemDB.

All rows: whole-cell or culture tests; agent: Mycobacterium tuberculosis

ECn is the concentration giving n% inhibition of infection, replication or growth.

SMILES	measure	tested at	cells	method	strain	changes	result
Cl.NCCN1C(=O)S/C(=C/c2ccccc2)C1=O	MIC bound			BACTEC	H37Rv		>12.5 µg/mL
COC(=O)/C(=C\c1ccccc1Cl)Oc1cccc(C(=O)OC)c1O	EC50			resazurin			118 µM
O=C(c1ccccc1)c1cn(-c2cccc3ccccc23)nn1	MIC				H37Rv		>12.5 µg/mL
CCOC(=O)C1=C(C)NC(C)=C(C(=O)OCC)C1c1cn(-c2ccccc2)nc1-c1ccc([N+](=O)[O-])cc1	MIC		VERO	resazurin	H37Rv		3.13 µg/mL
O=C(c1ccc(Br)cc1)c1cn(-c2ccccc2)nn1	inhibition	12.5 µg/mL			H37Rv		19%
CCC/[N+]([O-])=C/c1ccc([N+](=O)[O-])o1	MIC			BACTEC	H37Rv		≥12.5 µg/mL
Cc1nc2ccc(Cl)cc2c2nc3ccccc3n12	MIC99			resazurin	H37Rv		>25 µg/mL
Cc1[nH]c(C)c(CN2CCOCC2)c1CN1CCOCC1	MIC				103471		>64 µg/mL
O=C(/C=C1\N[C@H]2CCCC[C@H]2N\C1=C/C(=O)c1ccccc1)c1ccccc1	EC50						>6.25 µg/mL
CC(=O)c1cn[nH]n1	inhibition	12.5 µg/mL			H37Rv		14%
Oc1cc(CNC2CCCCC2)ccc1Oc1ccc(Cl)cc1Cl	MIC			MTT	V2475	INH RIF resistant	12.5 µg/mL
CC1(C)CC[C@]2(C(=O)O)CC[C@]3(C)C(CC[C@@H]4[C@@]5(C)C[C@H](O)CC(C)(C)[C@@H]5CC[C@]43C)[C@@H]2C1	MIC			resazurin	Clinical isolate MTY147		50 µg/mL
COC(=O)C1=C(C)NC(C)=C(C(=O)OC)C1c1cn(-c2ccccc2)nc1-c1ccc(O)cc1	inhibition	6.25 µg/mL		resazurin	H37Rv		38%
COc1cc2c(cc1OC)CN(c1c([N+](=O)[O-])cc3c(=O)c(C(=O)O)cn(C4CC4)c3c1C)CC2	MIC				H37Rv		0.39 µM
COC(=O)/C(=C\c1ccc(Br)cc1)Oc1cccc(C(=O)OC)c1O	EC50			resazurin			188 µM
CCCc1nc2ccc(Br)cc2c2nc3ccccc3n12	MIC99			resazurin	H37Rv	INH resistant	>25 µg/mL
Cc1cc(C(=O)NCc2ccc(Oc3ccc(Cl)cc3Cl)c(O)c2)no1	MIC			MTT	mc4977	INH resistant katG deletion	5 µg/mL
CCN(CC)C(=S)[S][Bi]([S]C(=S)N(CC)CC)[S]C(=S)N(CC)CC	MIC				CS-R		1.6 µg/mL
CC(=O)NC[C@H]1CN(c2ccc(N3C[C@@H]4OC(=O)N[C@@H]4C3)c(F)c2)C(=O)O1	MIC100			resazurin	H37Rv		0.625 µM
C=CC(=C)CCC1C(=C)CCC2[C@]1(C)CC[C@@H](OC(C)=O)[C@]2(C)C(=O)O	MIC						14.4 µg/mL
COC(=O)/C(=C\c1ccc(OC(C)=O)cc1)Oc1cccc(C(=O)OC)c1O	EC50			resazurin			120 µM
CCCCc1nc2ccc(Cl)cc2c2nc3ccccc3n12	MIC99			resazurin	H37Rv		25 µg/mL
COC(=O)C1=C(C)NC(C)=C(C(=O)OC)C1c1cn(-c2ccccc2)nc1-c1ccc(C)cc1	inhibition	6.25 µg/mL		resazurin	H37Rv		71%
COc1ccccc1C(=O)N/N=C/c1c(O)ccc2ccccc12	inhibition	12.5 µg/mL		BACTEC	H37Rv		-15%
Cc1c(N2CCC(n3c(=O)[nH]c4cc(Cl)ccc43)CC2)c([N+](=O)[O-])cc2c(=O)c(C(=O)O)cn(C3CC3)c12	MIC				H37Rv		2.89 µM
CN1CCN(CNC(=O)c2cnccn2)CC1	MIC				MS6210		100 µg/mL
CCCc1[nH]nc(C(N)=O)c1N=NN(C)C	inhibition	12.5 µg/mL		BACTEC	H37Rv		-10%
Cc1ccc2ncn3c4ccccc4nc3c2c1	MIC99			resazurin	H37Rv		>25 µg/mL
Cc1cc(=O)oc2c1ccc1occc(=O)c12	MIC			BACTEC	H37Rv		≥12.5 µg/mL
c1ccc2c(c1)ncn1c3ccccc3nc21	MIC99			resazurin	H37Rv	INH resistant	3.125 µg/mL
CCCCc1cn(Cc2ccc(Oc3ccc(Cl)cc3Cl)c(O)c2)nn1	MIC			MTT	mc4914	InhA overexpression	>80 µg/mL
Cc1c(CN2CCN(C)CC2)cc(-c2ccc(Cl)cc2)n1C1CCCCC1	MIC				103471		8 µg/mL
Cc1c(N2CCN(C(=O)C3COc4ccccc4O3)CC2)c([N+](=O)[O-])cc2c(=O)c(C(=O)O)cn(C3CC3)c12	MIC				H37Rv		2.92 µM
COC(=O)C1=C(C)NC(C)=C(C(=O)OC)C1c1cn(-c2ccccc2)nc1-c1ccc(Cl)cc1	inhibition	6.25 µg/mL		resazurin	H37Rv		62%
O=C1Oc2cc3c(c4cccc1c24)OCN(c1ccccc1)C3	inhibition	12.5 µg/mL		BACTEC	H37Rv		61%
O/C(=C\c1nc2ccccc2nc1/C=C(\O)c1ccccc1)c1ccccc1	MIC						>6.25 µg/mL
COC(=O)/C(=C\c1ccccc1C)Oc1cccc(C(=O)OC)c1O	EC50			resazurin			140 µM
O=C(NCN1CCOCC1)c1cnccn1	MIC				ATCC35801		16 µg/mL
CCOC(=O)C1=C(C)NC(C)=C(C(=O)OCC)C1c1cn(-c2ccccc2)nc1-c1ccc(F)cc1	MIC		VERO	resazurin	H37Rv		0.02 µg/mL
CCN(CC)CCNc1c(OC)cc(C)c2sc3ccccc3c(=O)c12.O=C(O)/C=C/C(=O)O	inhibition	12.5 µg/mL		BACTEC	H37Rv		99%
Cn1cnnc1SCc1ccccc1	MIC				My 331/88		1000 µM
O=C(NCN1CCNCC1)c1cnccn1	MIC				MS6210		33 µg/mL
CC(N)C(=O)NC1C(O)OC(CO)C(O)C1O	MIC bound			BACTEC	H37Rv		>12.5 µg/mL
CCCCN(CCCC)C(=O)c1ccc(Oc2ccc(Cl)cc2Cl)c(O)c1	MIC			MTT	H37Rv		>100 µg/mL
Cc1c(CN2CCOCC2)cc(-c2ccc(Cl)cc2)n1Cc1ccccc1	MIC				103471		8 µg/mL
CCCCN(CCCC)CNC(=O)c1cnc(C)cn1	MIC				PZA-resistant		100 µg/mL
CCCCOC(=O)c1c2nc3c(C(=O)OCCCC)ccc(C)c3oc-2c(C)c(=O)c1NC(C)=O	MIC bound			BACTEC	H37Rv		>12.5 µg/mL
Cc1cc(CN2CCN(C)CC2)c(C)n1Cc1ccccc1	MIC				103471		8 µg/mL
CCCCc1cc(-c2ccc(Oc3ccc(Cl)cc3O)c(Cl)c2)no1	MIC			MTT	H37Rv		>100 µg/mL
CCCN(CCC)CNC(=O)c1cnccn1	MIC				ATCC 35822		100 µg/mL
O=c1ccc2c(O)c3ccoc3cc2o1	MIC			BACTEC	H37Rv		≥12.5 µg/mL
Cc1cc(CC(=O)NCc2ccc(Oc3ccc(Cl)cc3O)c(Cl)c2)on1	MIC			MTT	H37Rv		100 µg/mL
CC(=O)NC[C@H]1CN(c2cc(F)c(N3CCC(NC(=O)N(C)C)C3)c(F)c2)C(=O)O1	MIC100			resazurin	H37Rv		2.5 µM
COC(=O)C1=C(C(=O)OC)P2(C)(C)SC(=S)N2C1(c1ccccc1)c1ccccc1	inhibition	12.5 µg/mL		BACTEC	H37Rv		1%
CC(=O)NC[C@H]1CN(c2cc(F)c(N3CC4NC(=O)NC4C3)c(F)c2)C(=O)O1	MIC100			resazurin	H37Rv		0.31 µM
Cc1cnc(C(=O)NCN2CCOCC2)cn1	MIC				PZA-resistant		100 µg/mL
CC(=O)c1cn(-c2ccccc2)nn1	MIC				H37Rv		>12.5 µg/mL
CCOC(=O)C1=C(C(=O)c2ccc(OC)cc2)C(c2ccc(OC)c(OC)c2)C(C(=O)c2ccc(OC)cc2)=C(C(=O)OCC)N1	inhibition	12.5 µg/mL		BACTEC	H37Rv		6%
COc1ccc2nc(Cl)c(C3C(C#N)=C(N)N(Nc4ccc(Cl)cc4)C4=C3C(=O)CC(C)(C)C4)cc2c1	MIC			agar	H37Rv		21 µg/mL
O=C([C@@H](O)CO)N1CC=C(c2c(F)cc(N3C[C@H](COc4ccon4)OC3=O)cc2F)CC1	MIC				linezolid resistant 8.1	T460C Cys154Arg	16 µg/mL
COC(=O)/C(=C/c1ccccc1)Oc1cccc(C(=O)OC)c1O	EC50			resazurin			277 µM
CCN(CC)CNC(=O)c1cnc(N(CC)CC)cn1	MIC				ATCC35801		16 µg/mL
CCOC(=O)C1=C(C)NC(C)=C(C(=O)OCC)C1c1cn(-c2ccccc2)nc1-c1ccc(OC)cc1	inhibition	6.25 µg/mL		resazurin	H37Rv		52%
O=[N+]([O-])c1cccc(F)c1CSc1ncn[nH]1	MIC				My 331/88		1000 µM
CC(=O)OC1COC(Nc2nc(NCc3ccccc3)n(C)c(=O)c2N=O)C(OC(C)=O)C1OC(C)=O	MIC bound			BACTEC	H37Rv		>12.5 µg/mL
Cc1ccc(NN2C(N)=C(C#N)C(c3cc4ccccc4nc3Cl)C3=C2CC(C)(C)CC3=O)cc1	MIC			agar	H37Rv		8 µg/mL
CC1COc2c(N3CCN(C)CC3)c(F)cc3c(=O)c(C(=O)O)cn1c23	MIC			broth dilution	Erdman		0.25 µg/mL
CC1(C)CC(=O)C2=C(C1)N(Nc1ccc(Cl)cc1)C(N)=C(C#N)C2c1cc2cc(Cl)ccc2nc1Cl	MIC			agar	H37Rv		87 µg/mL
O=[N+]([O-])c1ccc2nc(/C=C(\O)c3ccccc3)c(/C=C(\O)c3ccccc3)nc2c1	EC50						>6.25 µg/mL
Cc1c(/C=C2/CC/C(=C/c3[nH]c(C(=O)OC(C)(C)C)c(C)c3C)C2=O)[nH]c(C(=O)OC(C)(C)C)c1C	inhibition	12.5 µg/mL		BACTEC	H37Rv		0%
Cc1cc(CN2CCOCC2)c(C)n1C1CCCCC1	MIC				103471		>64 µg/mL
COc1ccc(CC2C3=C(CCCC3)CCN2c2c([N+](=O)[O-])cc3c(=O)c(C(=O)O)cn(C(C)(C)C)c3c2C)cc1	MIC				H37Rv		>22.34 µM
CN[C@@H]1[C@@H](O)C(O[C@@H]2[C@@H](O)[C@H](OC3O[C@H](CN)[C@@H](O)[C@H](O)[C@H]3O)[C@@H](N)C[C@H]2NC(=O)[C@@H](O)CN)OC[C@]1(C)O	MIC				T45		1.56 µg/mL
Nc1c(-c2nc3ccccc3[nH]2)sc(=S)n1-c1ccccc1	MIC bound			BACTEC	H37Rv		>6.25 µg/mL
Cc1ccc(NN2C(N)=C(C#N)C(c3cc4cc(C)ccc4nc3Cl)C3=C2CC(C)(C)CC3=O)cc1	MIC			agar	H37Rv		32 µg/mL
CCOC(=O)C1=C(C)NC(C)=C(C(=O)OCC)C1c1cn(-c2ccccc2)nc1-c1ccc(O)cc1	inhibition	6.25 µg/mL	VERO	resazurin	H37Rv		97%
CN1CC2CCC(CC1=O)N2C	MIC			BACTEC	H37Rv		≥12.5 µg/mL
CN[C@@H]1[C@H](O[C@H]2[C@H](O[C@H]3[C@H](O)[C@@H](O)[C@H](N=C(N)N)[C@@H](O)[C@@H]3N=C(N)N)O[C@@H](C)[C@]2(O)C=O)O[C@@H](CO)[C@H](O)[C@H]1O	MIC			broth dilution	CDC1551		0.25 µg/mL
NC(N)=N/N=C(\N=Nc1ccccc1)c1cccc2cccnc12	inhibition	12.5 µg/mL		BACTEC	H37Rv		27%
Clc1ccccc1CSc1ncn[nH]1	MIC				My 331/88		1000 µM
CCOC(=O)c1cc2c(ccc3ccccc32)[nH]1	inhibition	6.25 µg/mL		resazurin	H37Rv		50%
FC(F)(F)c1cccc(CSc2ncn[nH]2)c1	MIC				My 331/88		500 µM
C/C(=N\NC(=O)C[n+]1ccccc1)c1sc(-c2nc(C)c(/C(C)=N/NC(=O)C[n+]3ccccc3)s2)nc1C.[Cl-]	MIC bound			BACTEC	H37Rv		>12.5 µg/mL
O=C(c1ccccc1)c1ccc(Oc2ccc(Cl)cc2Cl)c(O)c1	MIC			MTT	mc4914	InhA overexpression	100 µg/mL

A second listing of 5 rows from above:

SMILES,measure,tested at,cells,method,strain,changes,result
CC(=O)c1cn(-c2ccccc2)nn1,MIC,,,,H37Rv,,>12.5 µg/mL
CN[C@@H]1[C@@H](O)C(O[C@@H]2[C@@H](O)[C@H](OC3O[C@H](CN)[C@@H](O)[C@H](O)[C@H]3O)[C@@H](N)C[C@H]2NC(=O)[C@@H](O)CN)OC[C@]1(C)O,MIC,,,,T45,,1.56 µg/mL
CCC/[N+]([O-])=C/c1ccc([N+](=O)[O-])o1,MIC,,,BACTEC,H37Rv,,≥12.5 µg/mL
O=C([C@@H](O)CO)N1CC=C(c2c(F)cc(N3C[C@H](COc4ccon4)OC3=O)cc2F)CC1,MIC,,,,linezolid resistant 8.1,T460C Cys154Arg,16 µg/mL
CCOC(=O)C1=C(C(=O)c2ccc(OC)cc2)C(c2ccc(OC)c(OC)c2)C(C(=O)c2ccc(OC)cc2)=C(C(=O)OCC)N1,inhibition,12.5 µg/mL,,BACTEC,H37Rv,,6%

Inhibition is in % at the dose shown (toxicity tests: loss of growth or viability). MIC50, MIC90 and the like: level of inhibition, or share of isolates inhibited. Lines come from different laboratories, so protocols vary. MIC bound comes from a single tested concentration. An empty or dashed field is not shown.